A mixed list of measured activities; the numbers were collected in NIAID ChemDB.

Common to all: whole-cell or culture tests; agent: Candida albicans; measure: EC50

Neighbouring rows are from separate reports. An empty or dashed field is not shown. ECn: concentration that inhibits the pathogen or its effect by n%.

structure | strain | method | setting | value
C=C(CN1CCN(C)CC1)C(=O)c1ccc(OC)cc1 | - | - | - | 8.05 µM
Cc1cnc(Nc2ccccc2Cl)nc1Nc1ccccc1Cl | - | - | - | 2.6 µg/mL
CC[C@@H](c1ccc(Cl)cc1)[C@@H](c1ccc(OC)cc1)n1cnnc1 | 28 strains | - | - | <256 µg/mL
Cc1cnc(Nc2ccc(O)cc2)nc1Nc1ccc(O)cc1 | - | - | - | 51 µg/mL
Cc1ccc(-n2cc(-c3ccc(Cl)cc3)c(C(=O)O)c2C)cc1 | 40 strains | - | - | >52.92 µg/mL
COc1cc(NC(C)CCCNC(=O)[C@H](CCCN)NC(=O)[C@@H](N)CCCN)c2nc(C(C)(C)C)ccc2c1 | - | broth dilution | - | >20 µg/mL
Cc1cc(C[n+]2cccc(C=NO)c2)on1.[Br-] | - | broth dilution | - | >20 µg/mL
C[C@H]1[C@H](O)[C@@H](C)/C=C/C=C/C=C/C=C/C=C/C=C/C=C/[C@H](O[C@@H]2O[C@H](C)[C@@H](O)[C@H](N)[C@@H]2O)C[C@@H]2O[C@](O)(C[C@@H](O)C[C@@H](O)CC[C@H](O)[C@@H](O)C[C@@H](O)CC(=O)O[C@H]1C)C[C@H](O)[C@H]2C(=O)O | 10231 | broth dilution | - | 2 µM
CC(C)CC(C(=O)O)N1C(=O)CSC1c1ccccc1 | - | broth dilution | - | 81.3 µM
COc1cc(CCCOC(=O)c2ccccc2)cc(OC)c1O | - | - | - | 11.41 µg/mL
O=C(O)CN1C(=O)CCSC1c1ccccn1 | - | broth dilution | - | 80.51 µM
C[C@@H]1C[C@@H](O)[C@H]2C3=C(C[C@H](O)[C@@]2(O)C1)C(=O)c1c(O)cccc1C3=O | - | resazurin | - | 46.2 µM
CCCOc1ccc(SCC#CCN2CCOCC2)cc1 | CNCM 1180-79 | - | - | 78 µg/mL
CC[C@H](C)/C=C(C)/C=C/C1=CC2=C(Cl)C(=O)[C@@]3(C)OC(=O)C(C(C)=O)=C3C2=CO1 | - | - | - | 16.7 µg/mL
CCC(c1ccc(OC)cc1)C(c1ccc(OC)cc1)n1cncn1 | 28 strains | - | - | >256 µg/mL
CCCCOc1ccc(SCC#CCN2CCCCC2)cc1 | CNCM 1180-79 | - | - | 87 µg/mL
c1ccc(Oc2ccnc(Oc3ccccc3)n2)cc1 | - | - | - | 24 µg/mL
CS(=O)(=O)OCC1COC(Cn2ccnc2)(c2ccc(-c3ccccc3)cc2)O1 | 44 strains | - | - | 64 µg/mL
Cc1c(C(=O)O)c(-c2ccc(Br)cc2)cn1-c1ccc(Br)cc1 | 40 strains | - | - | >12.29 µg/mL
COc1cc2ccnc3c2c(c1OC(=O)c1ccccc1C)N(C)C=C3 | - | - | - | >15 µg/mL
COc1cc(NC(C)CCCNC(=O)[C@H](CCCCN)NC(=O)[C@@H](N)CCCCN)c2nc(C(C)(C)C)ccc2c1 | - | broth dilution | - | >20 µg/mL
C=C(CN(C)C)C(=O)c1ccc(Cl)cc1 | - | - | - | 11.01 µM
COc1cccc(C(=O)Oc2c(OC)cc3ccnc4c3c2N(C)C=C4)c1 | - | - | - | >15 µg/mL
Cc1ccc(-n2cc(-c3ccc(Br)cc3)c(C(=O)O)c2C)cc1 | 40 strains | - | - | >47.92 µg/mL
O=C(O)CN1C(=O)CSC1c1ccc(Cl)cc1 | - | broth dilution | - | 77.51 µM
COc1ccc(C(=O)Cc2ccc(Cl)cc2)cc1 | 28 strains | - | - | >256 µg/mL
NC(=O)c1cc[n+](Cc2ccc(C[n+]3ccc(/C=N/O)cc3)s2)cc1.[Cl-].[Cl-] | - | broth dilution | - | >20 µg/mL
CC(=O)Nc1ccc(C(=O)N/N=C/c2cccc(O)c2)cc1 | ATCC 10231 | broth dilution | - | 17 µM
CCCCOc1ccc(SCC#CI)cc1 | CNCM 1180-79 | - | - | <78 µg/mL
Cc1ccc(-c2cn(-c3ccc(Br)cc3)c(C)c2C(=O)O)cc1 | 40 strains | - | - | <158 µg/mL
CCCCOc1ccc(SCC#CCN2CCN(C)CC2)cc1 | CNCM 1180-79 | - | - | <78 µg/mL
C=C(CN1CCOCC1)C(=O)c1ccc(OC)cc1 | - | - | - | 20.71 µM
C/C=C(/C)C(=O)Oc1ccc(OC)cc1C1OC1C | ATCC 90028 | - | - | >50 µg/mL
Cc1c(C(=O)O)c(-c2ccc(Cl)cc2)cn1-c1ccc(Br)cc1 | 40 strains | - | - | >24.85 µg/mL
Cc1c(O)c(C=O)c(O)c(C=O)c1O | - | - | - | >20 µg/mL
COc1ccc(C(O)Cc2ccc(Cl)cc2)cc1 | 28 strains | - | - | <256 µg/mL
O/N=C/c1cccc[n+]1Cc1csc2ccccc12.[Cl-] | - | broth dilution | - | >20 µg/mL
COc1ccccc1C1SCC(=O)N1C(CC(C)C)C(=O)O | - | broth dilution | - | 80.38 µM
COc1ccc(Oc2ncc(C)c(Oc3ccc(OC)cc3)n2)cc1 | - | - | - | 15.8 µg/mL
O/N=C/c1ccc[n+](Cc2ccc(C[n+]3cccc(/C=N/O)c3)s2)c1.[Cl-].[Cl-] | - | broth dilution | - | >20 µg/mL
COc1cc(NC(C)CCCNC(=O)CC(NC(=O)[C@H](N)CCCN)C(=O)O)c2nc(C(C)(C)C)ccc2c1 | - | broth dilution | - | >20 µg/mL
CC(=O)c1c(O)cc(O)c(C=O)c1O | - | - | - | >20 µg/mL
CCC(c1ccc(Cl)cc1)C(c1ccc(OC)cc1)n1ccnc1 | 28 strains | - | - | <256 µg/mL
CS(=O)(=O)OC[C@H]1CO[C@](Cn2ccnc2)(c2ccc(-c3ccccc3)cc2)O1 | 44 strains | - | - | 64 µg/mL
COc1ccc(C(=O)C(Cc2ccc(Cl)cc2Cl)c2ccc(Cl)cc2)cc1 | 28 strains | - | - | <256 µg/mL
Cc1c(C(=O)O)c(-c2ccc(Cl)cc2)cn1-c1ccc(Cl)cc1 | 40 strains | - | - | >24.9 µg/mL
CCCCOc1ccc(SCC#CCN2CCOCC2)cc1 | CNCM 1180-79 | - | - | <78 µg/mL
CCC(=O)c1c(O)cc(O)c(C=O)c1O | - | - | - | >20 µg/mL
CC(=O)N1CCN(c2ccc(OCC3COC(Cn4ccnc4)(c4ccc(-c5ccccc5)cc4)O3)cc2)CC1 | 44 strains | - | - | 32 µg/mL
Cc1cnc(Oc2ccc([N+](=O)[O-])cc2)nc1Oc1ccc([N+](=O)[O-])cc1 | - | - | - | 13.2 µg/mL
COc1cc(NC(C)CCCNC(=O)[C@H](CCCN=C(N)N)NC(=O)[C@@H](N)CCCN=C(N)N)c2nc(C(C)(C)C)ccc2c1 | - | broth dilution | - | >20 µg/mL
COc1cc2ccnc3c2c(c1OC(=O)c1cccc(C)c1)N(C)C=C3 | - | - | - | >15 µg/mL
O/N=C/c1cc[n+](Cc2cc(C[n+]3ccc(/C=N/O)cc3)on2)cc1.[Br-].[Br-] | - | broth dilution | - | >20 µg/mL
O=[N+]([O-])c1ccc(Oc2ccnc(Oc3ccc([N+](=O)[O-])cc3)n2)cc1 | - | - | - | 14.16 µg/mL
CCC(C)C(=O)Oc1ccc(OC)cc1C1OC1C | ATCC 90028 | - | - | >50 µg/mL
CCc1ccc(C(=O)Oc2c(OC)cc3ccnc4c3c2N(C)C=C4)cc1 | - | - | - | 10 µg/mL
CC(C)CCc1c(O)c(C=O)c(O)c(C=O)c1O | - | - | - | >20 µg/mL
COc1ccccc1C1SCC(=O)N1CC(=O)O | - | broth dilution | - | 79.49 µM
Cc1cnc(Oc2ccc(Br)cc2)nc1Oc1ccc(Br)cc1 | - | - | - | 22.8 µg/mL
S=C(S)n1nnc2ccccc21 | ATCC 10231 | broth dilution / absorbance | 48 h | >50 µg/mL
COc1cc(NC(C)CCCN)c2nc(C(C)(C)C)cc(C)c2c1Oc1cccc(C(F)(F)F)c1 | - | - | - | 6.5 µg/mL
COc1cc(/C=N/NC(=O)c2ccc(NC(C)=O)cc2)ccc1O | ATCC 10231 | broth dilution | - | 240 µM
COc1cc2ccnc3c2c(c1OC(=O)c1ccc(F)c(F)c1)N(C)C=C3 | - | - | - | >15 µg/mL
O=C(N[C@H](CO)[C@H](O)c1ccc([N+](=O)[O-])cc1)C(Cl)Cl | - | - | - | >100 µg/mL
CC(C)CC(O)C(=O)O | D 17 | broth dilution | - | 18000 µg/mL